Pooled drug test results. Numbers come from NIAID ChemDB, via PubChem.

Common to all: target-level tests; species: HIV-1; target: Reverse transcriptase; measure: inhibition

For "inactive" no cut-off is given.

{"structure": "[N-]=[N+]=N[C@@H]1[C@H](F)[C@@H](COP(=O)(O)O[C@@H]2[C@H](O)[C@@H](COP(=O)(O)O[C@@H]3[C@H](O)[C@@H](CO)O[C@H]3n3cnc4c(N)ncnc43)O[C@H]2n2cnc3c(N)ncnc32)O[C@H]1n1cnc2c(N)ncnc21", "dose": "300 µM", "value": "99.7%"}
{"structure": "COC(=O)/C(=C/c1cc(Cl)ccc1OCc1ccccc1)CNCc1cn([C@H]2C[C@H](n3cc(C)c(=O)[nH]c3=O)O[C@@H]2CO)nn1", "dose": "10 µM", "value": "2.2%"}
{"structure": "O=C(O)c1cn([C@@H]2O[C@H](CO)[C@@H](O)[C@H]2O)c2ccc(Br)cc2c1=O", "dose": "100 µM", "value": "0%"}
{"structure": "C=C1OC(=O)CC[C@]23C[C@]24CC[C@]2(C)[C@@H]([C@H](C)CCC=C(C)C)CC[C@@]2(C)[C@@H]4CC[C@@H]13", "dose": "200 µg/mL", "value": "2.6%"}
{"structure": "CN(C)c1c2c(c3nc4ccccc4c4c[nH]c1c34)=NCCC2=O", "dose": "1000 µg/mL", "value": "inactive"}
{"structure": "Cc1cccc(C)c1OCC(=O)N[C@@H](Cc1ccccc1)[C@H](O)[C@@H](O)[C@@H]1CCCN1C(=O)COc1c(C)cccc1C", "dose": "0.000001 µM", "value": "75%"}
{"structure": "C=C1C(=O)O[C@@H]2C[C@@H]3[C@]4(CC[C@]5(C)[C@@H]([C@H](C)CC/C=C(\\C)C=O)CC[C@@]35C)C[C@]4(CCC(=O)O)[C@H]12", "dose": "200 µg/mL", "value": "99.9%"}
{"structure": "CCN1c2ncccc2C(=O)Nc2c(COCc3ccccc3)cc(-c3cccc(OC)c3)nc21", "mutations": "RT-Y181C", "dose": "12 µM", "value": "1%"}
{"structure": "CCCN1C(=O)c2cc(Cl)nnc2N(CCC)c2ccccc21", "dose": "33 µM", "value": "25%"}
{"structure": "CCCCOC(=O)C(CNCc1cn([C@H]2C[C@H](n3cc(C)c(=O)[nH]c3=O)O[C@@H]2CO)nn1)C(O)c1cc(Cl)ccc1O", "dose": "10 µM", "value": "-9.4%"}
{"structure": "CCN1c2ncccc2C(=O)Nc2c(Cc3ccccc3)cc(=O)[nH]c21", "strain or isolate": "WT", "dose": "67 µM", "value": "1%"}
{"structure": "C=C1C(=O)O[C@@H]2C[C@@H]3[C@]4(CC[C@]5(C)[C@@H]([C@H](C)CCC=C(C)C)CC[C@@]35C)C[C@]4(CCC(=O)OC)[C@H]12", "dose": "200 µg/mL", "value": "9.9%"}
{"structure": "CCCN1C(=O)c2ccnnc2N(C2CC2)c2ccccc21", "dose": "330 µM", "value": "90%"}
{"structure": "CCN1c2ncccc2C(=O)Nc2c(CO)cc(OC)nc21", "mutations": "RT-Y181C", "dose": "24 µM", "value": "1%"}
{"structure": "S=C(NCCc1ccccn1)Nc1cnccn1", "dose": "330 µM", "value": "77%"}
{"structure": "CCCN1C(=O)c2ccnnc2N(C2CC2)c2ccc(C)cc21", "dose": "33 µM", "value": "19%"}
{"structure": "CN1CC2(CCN(C(=O)c3cc4cc(NS(C)(=O)=O)ccc4[nH]3)CC2)c2ncccc21", "dose": "100 µM", "value": "38%"}
{"structure": "CC1=CCC[C@H]2[C@](C)(CC3=CC(=O)C=C(O)C3=O)[C@@H](C)CC[C@]12C", "dose": "50 µg/mL", "value": "54%"}
{"structure": "S=C(NCCc1ccccn1)Nc1ccncn1", "dose": "3.3 µM", "value": "36%"}
{"structure": "O=C(O)CCC(CCC(=O)O)(CCC(=O)O)NC(=O)CCC(CCC(=O)NC(CCC(=O)O)(CCC(=O)O)CCC(=O)O)(CCC(=O)NC(CCC(=O)O)(CCC(=O)O)CCC(=O)O)NC(=O)CCCOC(=O)C1(C(=O)OCCCC(=O)NC(CCC(=O)NC(CCC(=O)O)(CCC(=O)O)CCC(=O)O)(CCC(=O)NC(CCC(=O)O)(CCC(=O)O)CCC(=O)O)CCC(=O)NC(CCC(=O)O)(CCC(=O)O)CCC(=O)O)C2c3cc4c5c6c3-c3c(cc7c8c3C6C3c6c-5c(cc5ccc9cc(c-8c3c9c65)C7)C4)C21", "dose": "2.1 µM", "value": "90%"}
{"structure": "Nc1ncnc2c1ncn2[C@@H]1O[C@H](COP(=O)(O)O[C@@H]2[C@H](O)[C@@H](COP(=O)(O)O[C@@H]3[C@H](O)[C@@H](COP(=O)(O)O)O[C@H]3n3cnc4c(N)ncnc43)O[C@H]2n2cnc3c(N)ncnc32)[C@@H](O)[C@H]1O", "strain or isolate": "IIIB", "dose": "10 µM", "value": "18%"}
{"structure": "CCOc1cccc(/C=C(\\CNCc2cn([C@H]3C[C@H](n4cc(C)c(=O)[nH]c4=O)O[C@@H]3CO)nn2)C(=O)OC)c1OCc1ccccc1", "dose": "10 µM", "value": "22.5%"}
{"structure": "CCCN1c2ccc(C)cc2N(C)C(=O)c2ccnnc21", "dose": "330 µM", "value": "39%"}
{"structure": "O=C(O)c1cn([C@@H]2O[C@H](CO)[C@@H](O)[C@H]2O)c2cc(Br)ccc2c1=O", "dose": "100 µM", "value": "10%"}
{"structure": "CCCN1c2ccc(C)cc2N(CC)C(=O)c2cc(Cl)nnc21", "dose": "330 µM", "value": "17%"}
{"structure": "Nc1ncnc2c1ncn2C1CC(F)C(COP(=O)(O)OC2C(O)C(COP(=O)(O)OC3C(O)C(CO)OC3n3cnc4c(N)ncnc43)OC2n2cnc3c(N)ncnc32)O1", "dose": "300 µM", "value": "99.7%"}
{"structure": "CCN1c2ncccc2C(=O)Nc2c(COCc3ccccc3)cc(OC)nc21", "mutations": "RT-Y181C", "dose": "26 µM", "value": "1%"}
{"structure": "CCN1c2ccc(C)cc2N(C)C(=O)c2ccnnc21", "dose": "330 µM", "value": "84%"}
{"structure": "CCN1c2ncccc2C(=O)Nc2c(C=O)cc(OC)nc21", "strain or isolate": "WT", "dose": "78 µM", "value": "1%"}
{"structure": "NCCS", "dose": "1600 µM", "value": "32%"}

For reference, 3 entries again:

structure,mutations,strain or isolate,dose,value
CN1CC2(CCN(C(=O)c3cc4cc(NS(C)(=O)=O)ccc4[nH]3)CC2)c2ncccc21,,,100 µM,38%
CCOc1cccc(/C=C(\CNCc2cn([C@H]3C[C@H](n4cc(C)c(=O)[nH]c4=O)O[C@@H]3CO)nn2)C(=O)OC)c1OCc1ccccc1,,,10 µM,22.5%
S=C(NCCc1ccccn1)Nc1ccncn1,,,3.3 µM,36%

Blank or dashed fields: not listed here. Conditions beyond the fields shown may differ between rows. Inhibition is in % at the dose shown (toxicity tests: loss of growth or viability).